From ChEMBL document CHEMBL3988442, “University of Dundee, Small-Polar-MMV Screening Library” (2021).

A: 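Phenotypic screen: M. tuberculosis growth, glucose 7H9 medium, 3 days; the read-out is not stated. Compounds at 50 µM. Higher reads as more growth inhibition (inferred: compounds with an IC50 in retests scored well above the rest). Size under these conditions: about 69,000 compounds, about 760 of them at 50% or above in at least one test.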
B: 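Growth of Mycobacterium tuberculosis over 4 days (cholesterol / DPPC medium with tyloxapol); the read-out is not stated. Concentration: 50 µM. Higher reads as more growth inhibition (inferred: compounds with an IC50 in retests scored well above the rest). About 69,000 compounds were tested under these conditions; 0.54% (about 370) showed 50% or more at least once.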

Results are given as percent effect.
The record does not define 0% and 100%; most values in the screen are far below 50% and negative numbers occur (in some assays of this library far below -100).
This is part of a subset picked to be rich in strong results.
Two or more numbers in one place are separate tests of the same structure; such repeats can differ widely.
A dash means the value is not listed here; it may have been measured.

| # | compound | A | B |
|---|---|---|---|
| 1 | `CCc1nnc2n1CCN(CC(=O)Nc1sccc1C#N)C2` | 0.4331 | - |
| 2 | `CC(C)NC(=O)NC(C)c1ccc(-c2ccncc2)cc1` (centres undefined) | - | -8.231 |
| 3 | `O=C(NCC1(N2CCOCC2)CCSC1)Nc1ccc(F)cc1` (centres undefined) | -25.38 | - |
| 4 | `CN(CC1CCCCO1)c1nc(-c2cccnc2)nc2c1CCNC2` (centres undefined) | 1.885 | -0.2664 |
| 5 | `CN(CC1CCCCO1)c1nncc(-c2cccc(F)c2)n1` (centres undefined) | 38 | - |
| 6 | `Cc1nc2ccccc2c(=O)n1CCC(=O)N1CCCC1` | 8.497 | - |
| 7 | `COc1cccc(CN(C)C(=O)CN2CC(n3nc(C)cc3C)C2)c1` | 0.7193 & -0.7445 | - |
| 8 | `CCOc1ccc(CNC(=O)N(C)CC(C)(C)O)cc1C` | 14.65 | 3.459 |
| 9 | `Cc1ccc(C(=O)CC(SC2CCCCC2)C(=O)O)cc1` (centres undefined) | 6.819 & 14.93 | 2.097 |
| 10 | `C[C@H](O)CNc1cc(-c2ccccc2)ncn1` | 9.159 | - |
| 11 | `[H][C@]12CC[C@]([H])(CN(Cc3[nH]cnc3C)C1)N(Cc1ccccc1SC)C2` | 12.13 & -31.93 | - |
| 12 | `Cc1c(F)cccc1S(=O)(=O)NCCN.Cl` | 31.37 & -0.09832 | - |
| 13 | `O=C(O)C(F)(F)F.c1cncc(-c2ccc3c(c2)C2(CC3)CCN(c3nncs3)CC2)c1` | -0.8087 | -14.45 |
| 14 | `[H][C@@]12CCC(=O)N(CCC3=CCCCC3)[C@]1([H])CCN(Cc1cnn(C)c1)C2` | 67.05 | - |
| 15 | `Cc1nc(CN(C)CC2CCCN2c2cccnn2)nc2ccccc12` (centres undefined) | 64.16 | - |
| 16 | `COc1ccc(CNc2cccnc2-n2cccn2)c(OC)c1OC` | 8.388 & 1.049 | - |
| 17 | `CN(C(=O)Cc1ccn(C)c1)C1CCCN(C2Cc3ccccc3C2)C1` (centres undefined) | -5.221 | - |
| 18 | `Cc1ccccc1N1CCN(C(=O)c2cnn(C(C)C)c2)C(C)C1` (centres undefined) | 7.42 | - |
| 19 | `CCOc1cc(F)ccc1NC1CCN(CC(F)(F)F)C1=O` (centres undefined) | 55.56 | - |
| 20 | `CCOc1cccc2c1OCC(C(=O)NS(=O)(=O)c1ccc(C)s1)=C2` | 8.559 | - |
| 21 | `Clc1ccc(C2(CNC3=NCCN3)CCCCC2)cc1.I` | 46.5 | - |
| 22 | `COC(=O)c1ccc(C(=O)NCc2ccco2)nc1` | -5.704 & 9.565 | -28.88 |
| 23 | `O=C(NCC1CCOC1)N1CCN(Cc2ccc3c(c2)CCO3)CC1` (centres undefined) | 12.18 | -12.99 |
| 24 | `Cc1ccc(CNc2cc3[nH]c(O)nc3cc2C)cc1` | 19.23 & 24.23 | - |
| 25 | `Fc1ccc(OC2CCN(Cc3nnc(-c4ccco4)o3)CC2)cc1` | 7.472 & 24.1 | - |
| 26 | `CC(C)c1noc(CN2CCN(C(=O)c3ccccc3F)CC2)n1` | -12.49 | - |
| 27 | `Cc1n[nH]c(C)c1CC(=O)NCCc1ccccc1` | -16.17 | - |
| 28 | `O=c1c2ccccc2cnn1Cc1cncn1C1CC1` | -5.649 & -7.001 | - |
| 29 | `CCC1CN(CCNS(C)(=O)=O)c2ccccc2O1` (centres undefined) | -7.477 & -4.051 | -8.509 |
| 30 | `CC(C)c1nc(C2CCCN(C(=O)c3ccc4c(c3)COC4)C2)no1` (centres undefined) | - | 2.362 |
| 31 | `O=C(NCCN1CCCCC1)c1nc2ccccc2c(=O)[nH]1` | -12.42 | -20.71 |
| 32 | `COc1cc(C)nc(N2CCN(C(=O)c3cc(C)no3)CC2)n1` | 33.82 | - |
| 33 | `CCC(C)CNc1ccc2oc(COC)nc2c1` (centres undefined) | - | 52.25 & 24.39 |
| 34 | `COCCN1CCC(CNCc2c[nH]nc2C(C)(C)C)CC1` | 65.19 | 46.05 |
| 35 | `COc1ccc(CCNC(=O)C(C)Nc2cccc(C)c2C)cc1` (centres undefined) | - | -18.87 |
| 36 | `COc1ccc2c(c1)c(-c1nc(C)ncc1CN)cn2C` | -1.111 | - |
| 37 | `N#Cc1ccsc1NC(=O)CCN1CCn2c(nnc2C2CC2)C1` | -1.674 | - |
| 38 | `Cc1cnc(C)c(N2CCN(Cc3ccc(-c4cc[nH]n4)o3)CC2)n1` | 50.26 | - |
| 39 | `Cc1cc2c(N)nc(=O)n(CC(=O)Nc3ccccc3)c2s1` | 32.71 | - |
| 40 | `c1ccc2c(N3CCOC(Cn4cccn4)C3)ncnc2c1` (centres undefined) | -1.439 | - |
| 41 | `Cc1cn2c(n1)C(CNCC1=Cc3cc(Cl)ccc3OC1)CCC2` (centres undefined) | 51.44 | - |
| 42 | `O=C(Nc1ccccc1OC1CCOC1)c1[nH]nc2c1CCCC2` (centres undefined) | 50.7 | - |
| 43 | `CN(CC(C)(CO)CO)C(=O)Nc1cc(F)cc(F)c1` | 28.46 & 4.764 | 12.63 |
| 44 | `CCN1CCC(CNCc2cc(C)ccc2OC)C1` (centres undefined) | - | -8.684 |
| 45 | `Cc1nc(N)ncc1C(=O)N1CCCC(CCc2ccccc2F)C1` (centres undefined) | -17.92 & 4.491 | 5.931 |
| 46 | `CCN(C)c1ccc(CNC(=O)c2cc(C(N)=O)cs2)cc1F` | 5.599 | -7.627 |

The first 6 entries again:

{"compound": "CCc1nnc2n1CCN(CC(=O)Nc1sccc1C#N)C2", "A": 0.4331}
{"compound": "CC(C)NC(=O)NC(C)c1ccc(-c2ccncc2)cc1", "stereo": "centres undefined", "B": -8.231}
{"compound": "O=C(NCC1(N2CCOCC2)CCSC1)Nc1ccc(F)cc1", "stereo": "centres undefined", "A": -25.38}
{"compound": "CN(CC1CCCCO1)c1nc(-c2cccnc2)nc2c1CCNC2", "stereo": "centres undefined", "A": 1.885, "B": -0.2664}
{"compound": "CN(CC1CCCCO1)c1nncc(-c2cccc(F)c2)n1", "stereo": "centres undefined", "A": 38}
{"compound": "Cc1nc2ccccc2c(=O)n1CCC(=O)N1CCCC1", "A": 8.497}